Anti-infective test results gathered from many reports (values: NIAID ChemDB through PubChem).

Common to all: whole-cell or culture tests; agent: Rhinovirus

Neighbouring rows are from separate reports. ECn is the concentration giving n% inhibition of infection, replication or growth.

SMILES | cells | strain or isolate | read by | measure | value
Cc1ccc(CCCOc2cc(C)c(-c3noc(C(F)F)n3)c(C)c2)nn1 | HeLa | serotypes 3 4 5 9 16 18 38 66 75 67 | cytopathic effect | EC80 | 0.11 µg/mL
Cc1cc(CCCCCOc2c(Cl)cc(C3=NCCO3)cc2Cl)on1 | HeLa | TYPE 30 | plaque count | EC50 | 0.04 µg/mL
CCOC(=O)c1ccc(OCCCCOc2ccc(-c3snc(SC)c3C#N)cc2)cc1 | HELA-OHIO | Serotype 41 (group B) | cytopathic effect | EC50 | >2 µM
CSc1nsc(-c2ccc(OS(=O)(=O)c3ccc(C)cc3)cc2)c1C#N | HELA-OHIO | Serotype 15 (group B) | cytopathic effect | EC50 | 1 µM
CCN(c1cccc(F)c1)c1nc(C(F)(F)F)nc2c1ncn2Cc1cccc(F)c1 | M-HELA | Serotype 2 | plaque count | EC50 | 21 µM
CCO/N=C/c1ccc(OCCC2CCN(c3ccc(Cl)nn3)CC2)cc1 | KB | SF-1662 (ICAM-1 receptor group 92) | neutral red | EC50 | 0.002 µM
Cc1cc(OCCCc2ccc(C(F)(F)F)nn2)cc(C)c1-c1noc(C(F)F)n1 | HeLa | serotypes 3 4 5 9 16 18 38 66 75 67 | cytopathic effect | EC80 | 0.1 µg/mL
COC(=O)c1cc(CCCOc2c(C)cc(-c3noc(C)n3)cc2C)on1 | HeLa | Serotype 50 | cytopathic effect | EC50 | 0.032 µg/mL
CCCc1ccc(CCCOc2ccc(-c3noc(C4CC4)n3)c(C)c2)nn1 | HeLa | serotypes 3 4 5 9 16 18 38 66 75 67 | cytopathic effect | EC80 | 0.4 µg/mL
CSc1nsc(-c2ccc(OCCCCOc3ccc(C#N)cc3)cc2)c1C#N | HELA-OHIO | Serotype 42 (group A) | cytopathic effect | EC50 | >2 µM
Cc1nc(-c2cc(C)c(OCCCc3cc(C(F)(F)F)no3)c(C)c2)no1 | HeLa | Serotype 50 | cytopathic effect | EC50 | 0.19 µg/mL
CSc1nsc(-c2ccc(OCCCOc3ccc(C#N)cc3)cc2)c1C#N | HELA-OHIO | Serotype 41 (group B) | cytopathic effect | EC50 | >2 µM
CN(C)c1nc(C(F)(F)F)nc2c1ncn2Cc1ccc(Cl)c(NC=O)c1 | M-HELA | Serotype 2 | plaque count | EC50 | >8 µM
COc1ccc(-c2snc(SC)c2C#N)cc1 | HELA-OHIO | Serotype 41 (group B) | cytopathic effect | EC50 | >12 µM
CSc1nsc(-c2ccc(OCCCc3ccccc3)cc2)c1C#N | HELA-OHIO | Serotype 89 (group B) | cytopathic effect | EC50 | 1.2 µM
CSc1nsc(-c2ccc(O)cc2)c1C#N | HELA-OHIO | Serotype 89 (group B) | cytopathic effect | EC50 | >10 µM
CCOC(=O)/C=C/[C@H](C[C@@H]1CCNC1=O)NC(=O)[C@@H](CC(=O)[C@@H](NC(=O)c1cc(C)on1)C(C)C)Cc1ccc(F)cc1 | OHIO HELA-I | Isolate 9 | cytopathic effect / visual reading | EC50 | 0.01 µg/mL
CN(C)c1nc(C(F)(F)F)nc2c1ncn2Cc1ccc(F)cc1 | M-HELA | Serotype 21 | plaque count | EC50 | >8 µM
Fc1cccc(Cn2cnc3c(Nc4cccc(F)c4)nc(C(F)(F)F)nc32)c1 | M-HELA | Serotype 26 | plaque count | EC50 | 3 µM
CN(C)c1nc(C(F)(F)F)nc2c1ncn2Cc1ccc(Cl)cc1Cl | M-HELA | Serotype 18 | plaque count | EC50 | >8 µM
COCc1cc(CCCOc2c(Cl)cc(-c3noc(C)n3)cc2Cl)on1 | HeLa | Serotype 1A | cytopathic effect | EC50 | 0.034 µg/mL
Cc1ccc(Cn2cnc3c(N(C)C)nc(C(F)(F)F)nc32)cc1 | M-HELA | Serotype 5 | plaque count | EC50 | >8 µM
CSc1nsc(-c2ccc(OCCCOc3ccc([N+](=O)[O-])cc3)cc2)c1C#N | HELA-OHIO | Serotype 39 (group B) | cytopathic effect | EC50 | 0.5 µM
CN(C)c1nc(C(F)(F)F)nc2c1ncn2Cc1cccc(F)c1 | M-HELA | Serotype 4 | plaque count | EC50 | >8 µM
Cc1cc(OCCCc2ccc(=S)[nH]n2)cc(C)c1-c1noc(C(F)F)n1 | HeLa | serotypes 3 4 5 9 16 18 38 66 75 67 | cytopathic effect | EC80 | 0.18 µg/mL
CN(C)c1nc(C(F)(F)F)nc2c1ncn2Cc1ccccc1Cl | M-HELA | Serotype 31 | plaque count | EC50 | >8 µM
CSc1nsc(-c2ccc(OCCCCOc3ccccc3)cc2)c1C#N | HELA-OHIO | Serotype 85 (group B) | cytopathic effect | EC50 | >20 µM

Repeating the first 2 entries:

SMILES	cells	strain or isolate	read by	measure	value
Cc1ccc(CCCOc2cc(C)c(-c3noc(C(F)F)n3)c(C)c2)nn1	HeLa	serotypes 3 4 5 9 16 18 38 66 75 67	cytopathic effect	EC80	0.11 µg/mL
Cc1cc(CCCCCOc2c(Cl)cc(C3=NCCO3)cc2Cl)on1	HeLa	TYPE 30	plaque count	EC50	0.04 µg/mL